Anti-infective test results gathered from many reports (values: NIAID ChemDB through PubChem).

Common to all: growth or infection tests; organism: Mycobacterium tuberculosis

ECn: concentration that inhibits the pathogen or its effect by n%.

smiles	method	read-out	tested at	strain	changes	value
CC(C)(C)c1cc(C(C)(C)C)c2oc(-c3cccc(Cl)c3)nc2c1	BACTEC	inhibition	6.25 µg/mL	H37Rv	-	<90%
NNC(=O)c1ccncc1	broth dilution	MIC	-	Clinical isolate 6134	Rifampicin- isoniazid- moxifloxacin-resistant	>10 µM
O=C1c2cc(F)ccc2-n2c1nc1ccccc1c2=O	-	MIC	-	H37Rv	-	<1 µg/mL
COc1cc2c[n+](C)c3c4cc5c(cc4ccc3c2cc1OC)OCO5	BACTEC	MIC	-	H37Rv	-	<12.5 µg/mL
Cn1cncc1C[C@H]1COC(=O)[C@@H]1[C@@H](O)c1ccccc1	BACTEC	inhibition	12.5 µg/mL	H37Rv	-	-12%
O=C(Nc1ccccc1)c1cc(/C=C/c2ccc(-c3ccc([N+](=O)[O-])s3)s2)nc2ccccc12	fluorescence	MIC	-	H37Rv	-	>6.25 µg/mL
CCOC(=O)CCC(NC(=O)c1ccc(Nc2nc3ccccc3nc2C(=O)OCC)cc1)C(=O)OCC	BACTEC	MIC bound	-	H37Rv	-	>12.5 µg/mL
CO[C@H]1/C=C/O[C@@]2(C)Oc3c(C)c(O)c4c(O)c(c(/C=N/N5CCN(C/C=C/c6ccccc6)CC5)c(O)c4c3C2=O)NC(=O)/C(C)=C\C=C\[C@H](C)[C@H](O)[C@@H](C)[C@@H](O)[C@@H](C)[C@H](OC(C)=O)[C@@H]1C	-	MIC	-	MTB33 (RIF-R)	-	1 µg/mL
COc1cccc(C2CC(c3c(O)c4ccccc4oc3=O)=NN2c2ccccc2)c1O	agar	MIC90	-	H37Rv	-	>6.25 µg/mL
C[C@]1(COc2ccc(N3CCC(Oc4ccc(OC(F)(F)F)cc4)CC3)cc2)Cn2cc([N+](=O)[O-])nc2O1	-	MIC	-	H37Rv (PZA-resistant)	-	0.012 µg/mL
O=C[C@@H](CO)O[C@H](C=O)N1C=NC2C(=O)N=CN=C21	BACTEC	inhibition	12.5 µg/mL	H37Rv	-	5%
C=C(NC(=O)c1csc(-c2nc3c(cc2O)-c2nc(cs2)C(=O)N[C@@H]([C@@H](C)O)C(=O)N/C(=C(\C)OC)c2nc(cs2)C(=O)N[C@@H]2c4nc(cs4)C(=O)N[C@@H](COC(=O)c4c5c6c(cccc6n4O)COC(=O)[C@@H](O[C@H]4C[C@](C)(O)[C@H](N(C)C)[C@H](C)O4)[C@H]2OC5)c2nc-3cs2)n1)C(N)=O	broth dilution	MIC	-	Clinical isolate 18460	Rifampicin- and isoniazid-resistant	≤2.5 µM
CC(C)(C)c1cc(C(C)(C)C)c2oc(-c3ccc([N+](=O)[O-])cc3)nc2c1	BACTEC	inhibition	6.25 µg/mL	H37Rv	-	<90%
CCOC(=O)c1c(NC(=O)c2c(F)c(F)c(F)c(F)c2F)sc2c1CCNC2=O	low oxygen	EC90	-	-	-	3.8 µM
CO/C(C)=C1/NC(=O)[C@H]([C@@H](C)O)NC(=O)c2csc(n2)-c2cc(O)c(-c3nc(C(=O)NCc4cnn(C)c4)cs3)nc2-c2csc(n2)[C@@H]2COC(=O)c3c4c5c(cccc5n3O)COC(=O)[C@@H](O[C@H]3C[C@](C)(O)[C@H](N(C)C)[C@H](C)O3)[C@@H](OC4)[C@H](NC(=O)c3csc1n3)c1nc(cs1)C(=O)N2	broth dilution	MIC	-	Clinical Isolate 913	-	≤10 µM
COc1cc2c(cc1OC(C)C)c[n+](C)c1c3cc4c(cc3ccc21)OCO4	BACTEC	inhibition	12.5 µg/mL	H37Rv	-	77%
NC(=O)c1cn(CCO)nc1[N+](=O)[O-]	resazurin	MIC bound	-	H37Rv	-	>6.25 µg/mL
Cc1c(F)c(N2CCNC(C)C2)cc2c1c(=O)c(C(=O)O)cn2C1CC1	-	MIC90	-	206 isolates (susceptible)	-	1 µg/mL
CO[C@H]1/C=C/O[C@@]2(C)Oc3c(C)c(O)c4c(O)c(c(/C=N/N5CCN(C)CC5)c(O)c4c3C2=O)NC(=O)/C(C)=C\C=C\[C@H](C)[C@H](O)[C@@H](C)[C@@H](O)[C@@H](C)[C@H](OC(C)=O)[C@@H]1C	-	MIC	-	H37Rv (p-aminosalicylate-resistant)	-	1.25 µg/mL
COc1ccc2c(=O)n(-c3ccccc3)c(=O)oc2c1	-	MIC	-	CNCTC MY331/88	-	32 µM
CC(C)(C)c1cc(C(C)(C)C)c2oc(-c3cccc(C(F)(F)F)c3)nc2c1	BACTEC	inhibition	6.25 µg/mL	H37Rv	-	<90%
O=C(Nc1ccccc1)c1cc(/C=C/c2ccc(-c3cccs3)s2)nc2ccccc12	fluorescence	MIC	-	H37Rv	-	>6.25 µg/mL
Cc1cccc(O)c1C(=O)NCc1ccc(Cl)cc1	-	MIC	-	My 331/88	-	16 µg/mL
O=C1c2cc(F)ccc2-n2c1nc1cc(F)ccc1c2=O	-	MIC	-	MDR 10038	-	<0.5 µg/mL
COc1c2c(c(OC)c3c1C(=O)C(=O)C=C3O)OCO2	BACTEC	inhibition	12.5 µg/mL	H37Rv	-	32%
O=C(Nc1ccccc1)c1cc(-c2cccs2)nc2ccccc12	fluorescence	MIC	-	H37Rv	-	>6.25 µg/mL
CCNC(=O)c1c(NC(=O)c2c(F)c(F)c(F)c(F)c2F)sc2c1CCN(CC)C2	turbidity	MIC	-	ATCC 35822	-	11 µM
CC(=O)Nc1ccc(/C=N/NC(N)=S)cc1F	-	MBC	-	H37Rv	-	6.25 µg/mL
CC1CN(c2cc3c(cc2F)C(=O)c2nc4ccccc4c(=O)n2-3)CCN1C(=O)OC(C)(C)C	-	MIC	-	H37Rv	-	>5 µg/mL
Cc1ccc2c(=O)n(-c3ccc(Br)cc3)c(=O)oc2c1	-	MIC	-	CNCTC MY331/88	-	62 µM
CCN1CCc2c(sc(NC(=O)c3c(F)c(F)c(F)c(F)c3F)c2C(=O)NC)C1	turbidity	EC90	-	H37Rv	rpoB S522L mutant	4.4 µM
COc1ccc2c(c1)C(=O)c1nc3ccccc3c(=O)n1-2	-	MIC	-	MDR 10038	-	1 µg/mL
O=C(Nc1nc(-c2ccccc2)cs1)c1cc(/C=C/c2ccc(-c3ccc([N+](=O)[O-])s3)s2)nc2ccccc12	fluorescence	MIC	-	H37Rv	-	6.25 µg/mL
O=C1c2cc(F)ccc2-n2c1nc1nccnc1c2=O	-	MIC	-	MDR 10038	-	10 µg/mL
O=C1c2ccccc2C(=O)c2c1oc1cc(O)c(Cl)cc21	resazurin	inhibition	6.25 µg/mL	H37Rv	-	95%
N#Cc1c(NC(=O)c2c(F)c(F)c(F)c(F)c2F)sc2c1CCOC2	turbidity	EC50	-	ATCC 35822	-	4.3 µM
COc1c(C)c2c3c4c1C(=O)C(=CC4=O)NC(=O)/C(C)=C\C=C\[C@H](C)[C@@H]1OC(C)(C)O[C@@H]([C@@H](C)[C@H](OC(C)=O)[C@H](C)[C@@H](OC)/C=C/O[C@@](C)(O2)C3=O)[C@@H]1C	BACTEC	MIC	-	H37Rv	-	6.26 µg/mL
COc1cc2c3c(OC)cc4c(c3c[n+](C)c2c2cc3c(cc12)OCO3)OCO4	BACTEC	inhibition	12.5 µg/mL	H37Rv	-	99%
CC(=O)Nc1ccc(S(=O)(=O)/C(=C/c2ccc(-c3ccc(Br)cc3)o2)c2ccc([N+](=O)[O-])o2)cc1	BACTEC	MIC bound	-	H37Rv	-	>12.5 µg/mL
CCOC(=O)c1ccc2c(c1)C(=O)c1nc3ccccc3c(=O)n1-2	-	MIC	-	H37Rv	-	<0.4 µg/mL
O=C1NC(CN2CCCCC2)C(=O)NC1CN1CCCCC1	BACTEC	inhibition	12.5 µg/mL	H37Rv	-	24%
NNC(=O)c1cc(-c2ccccc2)nc2ccccc12	fluorescence	MIC	-	H37Rv	-	>6.25 µg/mL
Cc1cc2oc(=O)c(C3=NNC(c4ccccc4-c4ccccn4)C3)c(O)c2cc1C	agar	MIC90	-	INHR-MTB	Isoniazid-resistant	>6.25 µg/mL
CC(C)(C)c1ccc(CNC(=O)c2ccccc2O)cc1	-	MIC	-	My 331/88	-	16 µg/mL
O=C(Nc1ccccc1)c1cc(-c2ccc(-c3ccc([N+](=O)[O-])s3)s2)nc2ccccc12	fluorescence	MIC	-	H37Rv	-	>6.25 µg/mL
CC(C)(C)c1cc(C(C)(C)C)c2oc(-c3ccccc3Br)nc2c1	BACTEC	MIC	-	H37Rv	-	6.25 µg/mL
CC(=O)Nc1ccc(/C=N/NC(N)=S)c(F)c1	-	MIC	-	-	-	<6.25 µg/mL
Cn1nc(C(=O)NN)c(=O)[nH]c1=O	BACTEC	MIC	-	H37Rv	-	≥12.5 µg/mL
O=C1c2ccccc2-n2c1nc1ccc([N+](=O)[O-])cc1c2=O	-	MIC	-	H37Rv	-	>10 µg/mL
Oc1cc(Br)ccc1C(=S)NCc1cccc(Br)c1	-	MIC	-	My 331/88	-	1 µg/mL
COC1=CC23CC(CC(c4cc(OC)c(OC)c(OC)c4)C2C)OC3=CC1=O	BACTEC	MIC bound	-	H37Rv	-	>12.5 µg/mL
Cc1cc2oc(=O)c(C3=NN(c4ccccc4)C(c4ccc(Cl)cc4Cl)C3)c(O)c2cc1C	agar	MIC90	-	INHR-MTB	Isoniazid-resistant	>6.25 µg/mL
NNC(=O)c1cc(/C=C/c2ccc([N+](=O)[O-])s2)nc2ccccc12	fluorescence	MIC	-	H37Rv	-	1.56 µg/mL
O=C1c2c(Cl)cccc2-n2c1nc1ccccc1c2=O	-	MIC	-	MDR 10038	-	1 µg/mL
NC1[C@H]2CN(c3nc4c(cc3F)c(=O)c(C(=O)O)cn4-c3ccc(F)cc3F)C[C@@H]12	-	MIC90	-	250 isolates	-	64 µg/mL
CC(/C=N/NC(=S)SCc1ccccc1)=N\N=C(N)N	BACTEC	MIC	-	H37Rv	-	16 µg/mL
CCN1CCc2c(sc(NC(=O)c3c(F)c(F)c(F)c(F)c3F)c2C#N)C1	low oxygen	EC90	-	-	-	27 µM
CO/C(C)=C1/NC(=O)[C@H]([C@@H](C)O)NC(=O)c2csc(n2)-c2cc(O)c(-c3nc(C(=O)NCCCN4CCOCC4)cs3)nc2-c2csc(n2)[C@@H]2COC(=O)c3c4c5c(cccc5n3O)COC(=O)[C@@H](O[C@H]3C[C@](C)(O)[C@H](N(C)C)[C@H](C)O3)[C@@H](OC4)[C@H](NC(=O)c3csc1n3)c1nc(cs1)C(=O)N2	broth dilution	MIC	-	Clinical isolate 30034	-	≤2.5 µM
CSc1ccc(C(N)=O)c[n+]1C.[I-]	BACTEC	MIC	-	H37Rv	-	≥12.5 µg/mL
COc1cc2c[n+](C)c3c4cc5c(cc4ccc3c2cc1O)OCO5	BACTEC	inhibition	12.5 µg/mL	H37Rv	-	0%
C/C(O)=C(\C=N\C(=S)Nc1ccccc1)C(=O)Nc1ccccc1	BACTEC	inhibition	6.25 µg/mL	H37Rv	-	93%
CO[C@H]1/C=C/O[C@@]2(C)Oc3c(C)c(O)c4c(O)c(c(/C=N/N5CCN(C)CC5)c(O)c4c3C2=O)NC(=O)/C(C)=C\C=C\[C@H](C)[C@H](O)[C@@H](C)[C@@H](O)[C@@H](C)[C@H](OC(C)=O)[C@@H]1C	broth dilution	MIC	-	Clinical isolate 18343	Isoniazid- and moxifloxacin-resistant	≤0.1 µM
COc1cccc(C2CC(c3c(O)c4cc(C)c(C)cc4oc3=O)=NN2)c1O	agar	MIC90	-	H37Rv	-	>6.25 µg/mL
CCOC(=O)c1c(NC(=O)c2c(F)c(F)c(F)c(F)c2F)sc2c1CCOC2	low oxygen	EC90	-	-	-	1 µM
COc1cccc2c1C(=O)c1c(O)c3c(c(O)c1C2=O)CC(O)(C(C)=O)CC3OC1CC(NCC2(O)OC(C(=O)NCCCN(C)C)C(O)C2O)C(O)C(C)O1	-	MIC	-	TAC-R	-	12.5 µg/mL
O=C(Nc1nc(-c2ccc(Br)s2)cs1)c1cc(-c2cccs2)nc2ccccc12	fluorescence	MIC	-	H37Rv	-	>6.25 µg/mL
Cc1cc2c(cc1C)[n+](=O)c(C(=O)C/C(=N\NC(=O)c1ccccc1O)C(=O)Nc1ccccc1C(C)C)c(C)n2[O-]	BACTEC	MIC	-	H37Rv	-	≥12.5 µg/mL
O=c1oc2ccccc2c(=O)n1-c1ccc(Cl)cc1	-	MIC	-	CNCTC MY331/88	-	16 µM
COc1ccc2nc(C)c(C(=O)O)c(C(=O)O)c2c1	BACTEC	inhibition	12.5 µg/mL	H37Rv	-	28%
Cc1ccc2oc(=O)n(-c3ccccc3)c(=O)c2c1	-	MIC	-	CNCTC MY331/88	-	125 µM
CN1C(=O)[C@@]23C[C@]4(n5cc(C[C@]67SS[C@@](CO)(C(=O)N6C)N(C)C7=O)c6ccccc65)c5ccccc5N[C@@H]4N2C(=O)[C@]1(CO)SS3	BACTEC	inhibition	12.5 µg/mL	H37Rv	-	99%
O=C(Nc1nc(-c2cccs2)cs1)c1cc(/C=C/c2ccc(-c3ccc([N+](=O)[O-])s3)s2)nc2ccccc12	fluorescence	MIC	-	H37Rv	-	6.25 µg/mL
CN(C)CC1=Nc2cccc3cccc(c23)N1	BACTEC	MIC bound	-	H37Rv	-	>12.5 µg/mL
Oc1cc(Cl)ccc1C(=S)NCc1ccccc1	-	MIC	-	My 331/88	-	2 µg/mL
Fc1ccc(C(=S)Nc2ccccc2Cl)cc1	-	MIC bound	-	H37Rv	-	>6.25 µg/mL
COc1cc(OC)c2c(c[n+](C)c3c4cc5c(cc4ccc23)OCO5)c1OC	BACTEC	inhibition	12.5 µg/mL	H37Rv	-	92%

7 of the rows above, restated:

smiles	method	read-out	tested at	strain	changes	value
O=C(Nc1nc(-c2ccc(Br)s2)cs1)c1cc(-c2cccs2)nc2ccccc12	fluorescence	MIC	-	H37Rv	-	>6.25 µg/mL
O=c1oc2ccccc2c(=O)n1-c1ccc(Cl)cc1	-	MIC	-	CNCTC MY331/88	-	16 µM
O=C1NC(CN2CCCCC2)C(=O)NC1CN1CCCCC1	BACTEC	inhibition	12.5 µg/mL	H37Rv	-	24%
COc1c2c(c(OC)c3c1C(=O)C(=O)C=C3O)OCO2	BACTEC	inhibition	12.5 µg/mL	H37Rv	-	32%
CC1CN(c2cc3c(cc2F)C(=O)c2nc4ccccc4c(=O)n2-3)CCN1C(=O)OC(C)(C)C	-	MIC	-	H37Rv	-	>5 µg/mL
Oc1cc(Cl)ccc1C(=S)NCc1ccccc1	-	MIC	-	My 331/88	-	2 µg/mL
COc1cc2c[n+](C)c3c4cc5c(cc4ccc3c2cc1O)OCO5	BACTEC	inhibition	12.5 µg/mL	H37Rv	-	0%

A number after MIC or MFC names an inhibition level or a share of isolates. MIC bound: limit read from a one-dose screen. An empty or dashed field is not shown. Inhibition is in % at the dose shown (toxicity tests: loss of growth or viability). Rows are shuffled and stem from different studies.